In test [1] the test system is bloodstream-form T. brucei. Briefly: potency in Creek's minimal medium with inosine or hypoxanthine as purine source. The test is classed as cell-based. The note with it: same concentration of inosine or hypoxanthine.
In another test the test system is Tbb msh2+/+. Briefly: Alamar Blue assay on MMR-proficient control trypanosomes. It is filed as cell-based, Trypanosoma brucei. Conditions: read-out: Tbb msh2+/+ (EC50; µM) AVG; average of at least 3 independent experiments.
A further test relates to Tbb msh2+/-. Briefly: Alamar Blue assay on trypanosomes lacking one MSH2 allele. The test is classed as cell-based, Trypanosoma brucei. The note with it: read-out: Tbb msh2+/- (EC50; µM) AVG; average of at least 3 independent experiments.
Another test deals with Tbb msh2-/-. Briefly: Alamar Blue assay on trypanosomes lacking both MSH2 alleles. Conditions: for EC50: read-out: Tbb msh2-/- (EC50; µM) AVG, average of at least 3 independent experiments. It is filed as cell-based, Trypanosoma brucei. (Alamar Blue is a resazurin reagent that responds to reducing activity.)

This is an account of results in article PMC4604408, “Targeting the Parasite's DNA with Methyltriazenyl Purine Analogs Is a Safe, Selective, and Efficacious Antitrypanosomal Strategy” (Antimicrobial Agents and Chemotherapy, 2015).

With `O=[As]c1ccccc1` (centres unmarked), in test [1], the “sensitivity (EC50) in medium with inosine compared to hypoxanthine as purine source” value is given as “not significantly different”.

On to Phleomycin, for which the EC50 in the test with Tbb msh2+/+ was found to be 0.2 µM; in the test on Tbb msh2+/-, 0.11 µM; in the test with Tbb msh2-/-, 0.068 µM.

Consider N-methyl-N′-nitro-N-nitrosoguanidine, for which the EC50 in the test on Tbb msh2+/+ was determined as 3.3 µM; with Tbb msh2+/- it was 8.6 µM; with Tbb msh2-/- it was 22.4 µM. Also, in the test on Tbb msh2-/- (MSH2^+/− and MSH2^−/− compared with MSH2^+/+), the “potency against cells with impaired or lost MSH2 activity” value is recorded as “reduced potency”.
